Counter-ions that a name gives are not always drawn.
System: HVA calcium channels in rat DRG neurons
Details: 50 μM, after [R7A]Vc1.1(1-8), Vc1.1(1-8)-Amide, [Ser^3]Vc1.1(2-8) or [Ser^3]Vc1.1(1-8) exposure

## NC[C@H](CC(=O)O)c1ccc(Cl)cc1 [Baclofen, R-(+)-baclofen hydrochloride]
  baclofen-sensitive IBa fraction: 10%

From patent US11136351B2 (priority 2016, dated 2021)
